The target in the test is PfA-M1 (P. falciparum alanyl aminopeptidase, M1 family aminopeptidase) (Plasmodium falciparum, UniProt O96935). The test is described as follows: Ala-pNA hydrolysis at […] nm, Ki by Dixon plots. The note with it: tested form: HCl.

For the compound `NC1CCc2cccc(-c3ccccc3)c2CC1=O` (stereo not shown), the Ki – broadly, the equilibrium dissociation constant of an inhibitor or competing ligand from its target – turned out to be 50 nM.
